Laboratory results from patent publication US7919247B2, “Simultaneous quantification of nucleic acids in diseased cells” (Pharmasset, Inc., priority 2000, dated 2011).

Legend:
[1] = test system: 3TC-resistant (184V) HIV-1 strain; assay: endogenous viral RT assay of culture supernatant, HIV-1 infected human PBMC; type: cell-based
[2] = test system: 3TC-resistant (184V) HIV-1 strain; assay: real-time RT-PCR HIV-1 viral load in culture supernatant, infected human PBMC; type: cell-based
[3] = 184 V, RT assay, human PBMC, 5 days, read-out: EC50
[4] = 184 V, RT assay, human PBMC, 5 days, read-out: EC90
[5] = 184 V, real-time RT-PCR, human PBMC, 5 days, read-out: EC50
[6] = 184 V, real-time RT-PCR, human PBMC, 5 days, read-out: EC90
[7] = Human immunodeficiency virus 1, PBMC, 120 h

Molecule	EC50 [1, 3] [µM]	EC90 [1, 4] [µM]	EC50 [2, 5] [µM]	EC90 [2, 6] [µM]	EC50 [1, 7] [µM]	EC90 [1, 7] [µM]	EC50 [2, 7] [µM]	EC90 [2, 7] [µM]
Cc1cn([C@H]2C=C[C@@H](CO)O2)c(=O)[nH]c1=O [d4T]	0.032	0.19	0.00078	0.19				
Nc1ccn([C@@H]2CS[C@H](CO)O2)c(=O)n1 [3TC]	> 100	> 100						
(−)-FTC [(-) FTC]	65.1	160	0.34	> 100				
Nc1ccn([C@H]2S[C@@H](CO)C=C2F)c(=O)n1 [β-L-d4-2′F-(4-S-pentenyl)-C]					> 100	> 100	0.091	34.9
Nc1ccn([C@@H]2S[C@H](CO)C=C2F)c(=O)n1 [β-D-d4-2′F-(4-S-pentenyl)-C]					> 100	> 100	11.8	> 100
Cc1cn([C@H]2C[C@H](N=[N+]=[N-])[C@@H](CO)O2)c(=O)[nH]c1=O [AZT]	0.013	0.12						
